PubChem BioAssay AID504761 | Drosophila RNAi Screening Center, 2011
Assay: 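Fly genes whose silencing reduces dengue virus type 2 infection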 (primary screen). System: D.Mel-2 cells from Drosophila. Reagents: long dsRNA against Drosophila genes. Treatment: infection with dengue virus type 2; dose and infection time not stated. Read-out: 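Per well on two replicate plates, imaging gave the percent of cells positive for viral envelope protein, ranked by infection, and a nuclear count of cells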. Scale: infection score: higher = more virus-infected cells. Hit rule: 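Very low infection ranking in both replicate wells (chance probability at most 0.065), then a retest showing infection dropped 1.5-fold or more at p below 0.05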. Meaning of the calls: active = confirmed: knock-down lowers infection; inactive = not picked or not confirmed.
The deposit covers about 22,000 reagents; below is an unselected part of those with a known target gene and a result. Over the whole deposit, 116 (0.52%) were called active. 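Calls depend on retest data that are not deposited; infection was ranked per plate without normalising between plates; the unit of the infection score is not given.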 Further read-outs or replicates are left out here. Not stated in the record: the amount of reagent, the time to read-out.

How did the screen score Muc68Ca [DRSC10312]?
infection score, replicate 1: 6.53; outcome: inactive

For Muc68Ca [DRSC10313], what was measured?
infection score, replicate 1: 3.01; outcome: inactive

What did the screen give for BRWD3 [DRSC15369]?
infection score, replicate 1: 7.65; outcome: inactive

For BRWD3 [DRSC16032], what does the deposit list?
infection score, replicate 1: 2.88; outcome: inactive

With CG8399 [DRSC07163], what does the deposit list?
infection score, replicate 1: 10.6; outcome: inactive

With Atg4b [DRSC15988], what was measured?
infection score, replicate 1: 18.2; outcome: inactive

What did the screen give for Atg4b [DRSC25480]?
infection score, replicate 1: 2.68; outcome: inactive

For TwdlW [DRSC15540], what does the deposit list?
infection score, replicate 1: 7.85; outcome: inactive

What is on record for TwdlW [DRSC25402]?
infection score, replicate 1: 11.3; outcome: inactive

What did the screen give for pic [DRSC16639]?
infection score, replicate 1: 5.36; outcome: inactive

For CG7457 [DRSC10849], what does the deposit list?
infection score, replicate 1: 3.3; outcome: inactive

With CG7457 [DRSC27107], what was measured?
infection score, replicate 1: 36.7; outcome: inactive

2 entries from above, arranged by “infection score, replicate 1”, ascending:
TwdlW [DRSC15540]: infection score, replicate 1 = 7.85; outcome = inactive
TwdlW [DRSC25402]: infection score, replicate 1 = 11.3; outcome = inactive
